Laboratory results from the supplement of paper PMC9931576.
Human monoclonal antibodies against the spike receptor-binding domain (heavy:light variable regions). IC50 against pseudoviruses bearing the spike of naturally observed variants; lower = stronger; >10 µg/ml means not reached at the top dose. No active / inactive call. The stated detection limit is 0.0005 µg/ml; values near or below 0.001 µg/ml lie at the floor of the assay.

B1: BD56-831 (protein)
chain 1: QVQLVESGGGLVKPGGSLRLSCAASGFTFSDYYMSWIRQAPGKGLEWVSYISTSGSTIYYADSVKGRFTVSRDNAKNSLYLQMNSLRAEDTAVYYCARELGGEPPAHWGQGTLVTVSS
chain 2: QPVLTQPPSASASLGASVTLTCTLSSGYSNYIVDWHQQRPGKGPRFVMRVGTGGIVGSKGDGIPDRFSVLGSGLNRYLTIKNIQEEDESDYHCGADHGSGSNFVYVFGTGTKVTVL
B2: BD56-836 (protein)
chain 1: QVQLQESGPGLVKPSETLSLTCTVSGGSISSYYWSWIRQPPGKGLEWIGYIYYSGSTNYNPSLKSRVTISVDTSKNQFSLKLSSVTAADTAVYYCASTPEYSSSYYFDYWGQGTLVTVSS
chain 2: SYELTQPPSVSVSPGQTARITCSADALPQQYAYWYQQKPGQAPVVVIYKDTERPSGIPERFSGSSSGTTVTLTISGVQAEDEADYYCQSADSSGTYPVVFGGGTKLTVL
B3: BD56-841 (protein)
chain 1: QVQLVQSGAEVKKPGASVRVSCKTSGYTFTNYGISWVRQAPGQGLEWMGWISAYNGDTNYAQELQDRVTMTTDTSTSTAYMELRSLRSDDTAVYYCAREIVLVSSMWPEPVYWGQGTLVTVSS
chain 2: NFMLTQPHSVSESPGKTVTISCTRSSGSIASNFVQWYQQRPGSAPTTVICEDNQRPSGVPDRFSGSIDRSSNSASLTISGLKTEDEADYYCQSYDSSNHVVFGGGTKLTVL
B4: BD56-850 (protein)
chain 1: QVQLVQSGAEVKKPGSSVKVSCKASGGTFSSYAISWVRQAPGQGLEWMGGIIPIFGTANYAQKFQGRVTITADESTSTADMELSSLRSEDTAVYYCATTPQLYFGSGGGYYFDYWGQGTLVTVSS
chain 2: DIQMTQSPSSLSASVGDRVTITCQASQDISNYLNWYQQKPGKAPKLLIYDASNLETGVPSRFSGSGFGTDFTFTITSLQPEDFATYYCQHYDVFGQGTKLEIK
B5: BD56-852 (protein)
chain 1: QVQLVESGGGLVKPGGSLRLSCAASGFTFSDYYMSWIRQAPGKGLEWVSYISSSGSTIYYADSVKGRFTISRDNAKNSLYLQMNSLRAEDTAVYYCAGCASYSSSWYANYWGQGTLVTVSS
chain 2: SYELTQPPSVSVSPGQTARITCSGDALPTQYAYWYQQRPGQAPVLVIYKDTERPSGIPERFSGSSSGTTVTLTISGVQAEDEADYYCQSADSSGPYPGVFGGGTKLTVL
B6: BD56-871 (protein)
chain 1: QVTLRESGPALVKPTQTLTLTCTFSGFSLSTSGMCVSWIRQPPGKALEWLALIDWDDDKYYSTSLKTRLTISKDTSKSQVVLTMTNMDPVDTATYYCARTHSDYYYYGMDVWGQGTTVTVSS
chain 2: SYELTQPPSVSVSPGQTARITCSADALPIQYAYWYQQKPGQAPVLVIYKDSERPSGIPERFSGSSSGTTVTLTISGVQAEDEADYYCQSADSSASYQVFGGGTKLTVL
B7: BD56-877 (protein)
chain 1: QVQLQESGPGLVKPSETLSLTCTVSGGSVSSSSYYWSWIRQPPGKGLEWIGYFYYSGSTNYNPSLNSRVTISVDTSKNQVSLKLSSVTAADTAVYYCARGNILMVRGVIPAFDIWGQGTMVTVSS
chain 2: QSVLTQPPSVSGAPGQRVTISCTGSSSNIGAGYDVHWYQQLPGTAPKLLIYGNSNRPSGVPDRFSGSKSGTSASLAITGLQAEDEADYYCQSYDSSLSGLFGGGTKLTVL
B8: BD56-879 (protein)
chain 1: EVQLVQSGAEVKKPGESLKISCKGSGYRFTNYWIGWVRQMPGKGLEWMNIFHPGDSDTRYSPSFQGQVTFSADKSISTAYLQWSSLKASDTAMYYCARLNNYDILTGVSPYFDYWGQGTLVTVSS
chain 2: QSALTQPASVSGSPGQSITISCTGTSSDVVAYNYVSWYQHHPGKAPKLMIYDVSDRPSGVSNRFSGSKSGNTASLTISGLQAEDEADYYCSSYTSSSTWVFGGGTKLTVL
B9: BD56-886 (protein)
chain 1: QVQLVESGGGVVQPGRSLRLSCAVSGFTFSTHGMHWVRQAPGKGLEWVAFIWYDGSEKYYADSVKGRFTISRDNPKNTLYLHMNGLRVEDTAVYYCAKDLIGYCSAGYCYIFDFWGQGALVTVSS
chain 2: NFMLTQPHSVSESPGKTVTISCTRSSGGIASNFVQWYQQRPGSPPTTVIYEDDQRPSGVPDRFSGSIDRSSNSASLTISGLKTEDEAEYYCQSYENNNQGVIFGGGTKLTIL
B10: BD56-890 (protein)
chain 1: EVQVVESGGGLVQPGRSLRLSCIASGFSFGDYAMSWVRQAPGKGLEWVSFIRSKAYGGTTEYAASVKGRFTISRDDSKSIAYLQMNSLTTEDTAVYYCASSEGGLFDYWGQGILVTVSS
chain 2: DIQMTQSPSSLSASVGDRVTITCQATQDINNYLNWYQQKPGKAPKLLIYDASNLDTGVPSRFSGSGSGTDFTFTISSLQPEDIATYYCQQYDNLPWTFGQGTKVEIK
B11: BD55-5689 (protein)
chain 1: QVPLQESGPGLVKPSETLSLTCSVSGPSITSYYWSWIRQPPGKGLEWIGFIYFSGSTNYNPSLKSRVTISVDTSKNQFSLKLSSVTAADTAVYYCAQIWVAGKAGSWFDPWGQGTLVTVSS
chain 2: QSVLTQPPSASGTPGQRVTISCSGSSSNIGSNTVNWYQQLPGTAPKLLIYRNNQRPSGVPDRFSGSKSGTSASLAISGLQSEDEADYYCATWDDSLNGPVFGGGTKLTVL

Columns and labels:
Experiment in all cases: pseudovirus neutralization IC50; higher = weaker neutralization
[1] = target: SARS-CoV-2 Omicron BA.1 spike pseudovirus
Method: (§1)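 Single-round VSV luciferase pseudovirus mixed with antibody dilutions for 1 h and put on Huh-7 cells for about a day; IC50 from the dose curve.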

[2] = target: SARS-CoV-2 Omicron BA.2 spike pseudovirus
Method: as §1

[3] = target: SARS-CoV-2 Omicron BA.2.75 spike pseudovirus
Method: as §1

[4] = target: SARS-CoV-2 Omicron BA.2.75.2 spike pseudovirus
Method: as §1

[5] = target: SARS-CoV-2 Omicron BA.5 spike pseudovirus
Method: as §1

[6] = target: SARS-CoV-2 Omicron BM.1.1.1 spike pseudovirus
Method: as §1

[7] = target: SARS-CoV-2 Omicron BQ.1.1 spike pseudovirus
Method: as §1

[8] = target: SARS-CoV-2 Omicron BR.2 spike pseudovirus
Method: as §1

[9] = target: SARS-CoV-2 Omicron CA.1 spike pseudovirus
Method: as §1

[10] = target: SARS-CoV-2 Omicron XBB spike pseudovirus
Method: as §1

[11] = target: SARS-CoV-2 early D614G spike pseudovirus
Method: as §1

Row | Binder | pseudovirus neutralization IC50 [1] | pseudovirus neutralization IC50 [2] | pseudovirus neutralization IC50 [3] | pseudovirus neutralization IC50 [4] | pseudovirus neutralization IC50 [5] | pseudovirus neutralization IC50 [6] | pseudovirus neutralization IC50 [7] | pseudovirus neutralization IC50 [8] | pseudovirus neutralization IC50 [9] | pseudovirus neutralization IC50 [10] | pseudovirus neutralization IC50 [11]
1 | B1 | 0.0059 mg/L | 0.00428 mg/L | 0.0623 mg/L | > 10 mg/L | > 10 mg/L | > 10 mg/L | > 10 mg/L | > 10 mg/L | > 10 mg/L | > 10 mg/L | > 10 mg/L
2 | B2 | 0.422 mg/L | > 10 mg/L | > 10 mg/L | > 10 mg/L | > 10 mg/L | > 10 mg/L | > 10 mg/L | > 10 mg/L | > 10 mg/L | > 10 mg/L | > 10 mg/L
3 | B3 | 0.0119 mg/L | 0.0489 mg/L | > 10 mg/L | > 10 mg/L | > 10 mg/L | > 10 mg/L | > 10 mg/L | > 10 mg/L | > 10 mg/L | > 10 mg/L | > 10 mg/L
4 | B4 | 0.00887 mg/L | 0.0307 mg/L | 0.594 mg/L | 0.326 mg/L | 0.148 mg/L | 0.277 mg/L | 5.19 mg/L | 0.19 mg/L | 0.204 mg/L | 0.269 mg/L | > 10 mg/L
5 | B5 | 0.0649 mg/L | 0.191 mg/L | 0.387 mg/L | 0.371 mg/L | 0.345 mg/L | 0.208 mg/L | > 10 mg/L | 0.275 mg/L | 0.635 mg/L | > 10 mg/L | > 10 mg/L
6 | B6 | 0.808 mg/L | > 10 mg/L | > 10 mg/L | > 10 mg/L | > 10 mg/L | > 10 mg/L | > 10 mg/L | > 10 mg/L | > 10 mg/L | > 10 mg/L | > 10 mg/L
7 | B7 | 0.0159 mg/L | > 10 mg/L | > 10 mg/L | > 10 mg/L | > 10 mg/L | > 10 mg/L | > 10 mg/L | > 10 mg/L | > 10 mg/L | > 10 mg/L | > 10 mg/L
8 | B8 | 0.169 mg/L | 0.439 mg/L | 0.843 mg/L | > 10 mg/L | > 10 mg/L | > 10 mg/L | > 10 mg/L | > 10 mg/L | > 10 mg/L | > 10 mg/L | > 10 mg/L
9 | B9 | 0.0726 mg/L | > 10 mg/L | 0.432 mg/L | 2.19 mg/L | 2.2 mg/L | 3 mg/L | > 10 mg/L | 3.09 mg/L | 2.08 mg/L | > 10 mg/L | > 10 mg/L
10 | B10 | 0.012 mg/L | 0.142 mg/L | > 10 mg/L | > 10 mg/L | > 10 mg/L | > 10 mg/L | > 10 mg/L | > 10 mg/L | > 10 mg/L | > 10 mg/L | > 10 mg/L
11 | B11 |  |  |  |  |  |  | > 10 mg/L |  |  | > 10 mg/L | 0.00182 mg/L
